Reference: PubChem BioAssay AID449762 (Southern Research Specialized Biocontainment Screening …, 2010)
Results filed as inconclusive are left out.

Test system: M. tuberculosis H37Rv growth inhibition, 7H9 media
Assay: M. tuberculosis growth inhibition, HTS (AID 449762);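 further: bacterial growth assessed after seven days of incubation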
Conditions: measured here: IC90 growth inhibition

Row | Structure (SMILES) | IC90 [µM]
1 | CC(=O)NC(SC(=S)N(C)C)C(Cl)(Cl)Cl (stereo not drawn) | 29.5
2 | CN(C)C(=O)c1cc([N+](=O)[O-])cc2c1-c1c(cc([N+](=O)[O-])cc1[N+](=O)[O-])C2=O | 9.56
3 | O=[N+]([O-])c1cc([N+](=O)[O-])c(CCNc2ccccc2)c([N+](=O)[O-])c1 | 23.9
